In US8361473B2, “Antibodies and their uses for diagnosis and treatment of cytomegalovirus infection and associated diseases” (priority 2007, dated 2013):

Test system: HLA-A2/pp65 495-503 complexes in fibroblasts infected with CMV AD169 or RV798
Experiment: Kinetic flow cytometry of HLA-A2/pp65 complex expression, intracellular and extracellular staining
Type: cell-based, human
Conditions: inside or on the surface, 120 hours

B1: H9 IgG Ab: whole IgG molecule made from recombinant H9 Fab, produced in HEK293 cells (antibody)
heavy: EVQLVQSGAEVKKPGSSVKVSCKASGGTFSSYAISWVRQAPGQGLEWMGGIIPIFGTANYAQKFQGRVTITADESTSTAYMELSSLRSEDTAVYYCARGDLYYYDSSGYPRYYFDYWGQGTLVTVSSASTKGPSVFPLAPSSKSTSGGTAALGCLVKDYFPEPVTVSWNSGALTSGVHTFPAVLQSSGLYSLSSVVTVPSSSLGTQTYICNVNHKPSNTKVDKKVEPKSC
light: LETTLTQSPGTLSLSPGERATLSCRASQSVSSSYLAWYQQKPGQAPRLVIYGASSRATGIPDRFSGSGSGTDFTLTISRLEPEDFAVYYCQHYSTSPGFTFGQGTKLEIRRTVAAPSVFIFPPSDEQLKSGTASVVCLLNNFYPREAKVQWKVDNALQSGNSQESVTEQDSKDSTYSLSSHQGLSSPVTKSFNRGEC
modifications: left off: a dimerising Fc or GST
B1 was tested. Which “reactivity with HLA-A2 negative fibroblasts infected with wild-type CMV” value did it give?
The value was “no reactivity”.
